Anti-infective test results gathered from many reports (values: NIAID ChemDB through PubChem).

Shared fields: growth or infection tests; agent: Candida parapsilosis

A number after MIC or MFC names an inhibition level or a share of isolates.

compound,strain or isolate,read by,setting,endpoint,result
CCCC1=NOC(CCCCCCCCC(=O)OC)C1,Clinical isolate,agar,,MIC100,256 µg/mL
COc1cc(C[C@H](C)[C@H](C)Cc2ccc(O)c(O)c2)ccc1O,CCC 124-2000,broth dilution,,MIC50,31.25 µg/mL
CC(=O)N1CCN(c2ccc(OC[C@H]3CO[C@](Cn4ccnc4)(c4ccc(Cl)cc4Cl)O3)cc2)CC1,52 clinical isolates,broth dilution,,MIC90,0.062 µg/mL
c1ccc([Se][Se]c2ccccc2)cc1,ATCC 90018,broth dilution,,MIC,>64 µg/mL
O=c1c(O)c(-c2ccccc2)oc2cc(O)cc(O)c12,,broth dilution,,MIC,40 µg/mL
C1=C(c2ccc3ccccc3c2)C2CCN1CC2,ATCC 22019,broth dilution,,EC50,>16 µg/mL
O=c1cc(-c2ccccc2)oc2cc(O)c(O)c(O)c12,ATCC 22019,,,MIC,52 µg/mL
O=Cc1cccc(O)c1O,ATCC 22019,broth dilution / turbidity,,EC50,0.08 µM
COc1cc(C[C@@]2(O)CO[C@H](c3ccc(O)c(OC)c3)[C@H]2CO[C@@H]2O[C@@H](CO)[C@@H](O)[C@H](O)[C@H]2O)ccc1O,ATCC 22019,MTT,,MIC,1.5 µg/mL
COc1cnc2c3c(nccc13)C1SC=CC1C2=O,,,,MIC80,>64 µg/mL
CN(C/C=C/C#CC(C)(C)C)Cc1cccc2ccccc12,ATCC 22019,broth dilution,biofilm,MIC100,50 µg/mL
C=CCSS(=O)CC=C,,broth dilution,,MIC,320 µg/mL
C=CC(C)(O)CCCC=C(C)C,,,,MIC90,0.031 µg/mL
COc1ccc2cc(C3=CN4CCC3CC4)ccc2c1,ATCC 22019,broth dilution,,EC50,>16 µg/mL
O=[N+]([O-])c1ccc(CNC2CCc3c(O)cccc3C2)cc1,,,,MIC,>64 µM
Cc1ccc(C(C)C)c(O)c1,PYCC 2545,broth dilution / turbidity,,EC50,0.56 µM
CC(C)(C)[Si](C)(C)Oc1ccc(C2=CN3CCC2CC3)cc1,ATCC 22019,broth dilution,,EC50,>16 µg/mL
C[C@@H](c1ncncc1F)[C@](O)(Cn1cncn1)c1ccc(F)cc1F,52 clinical isolates,broth dilution,,MIC90,0.062 µg/mL
C1=C(c2cnc3ccccc3c2)C2CCN1CC2,ATCC 22019,broth dilution,,EC50,>16 µg/mL
C[C@@H]1[C@H](O)[C@@H](C)/C=C/C=C/C=C/C=C/C=C/C=C/C=C/[C@H](OC2O[C@@H](C)[C@H](O)[C@@H](N)[C@H]2O)C[C@@H]2OC(O)(C[C@@H](O)C[C@@H](O)[C@H](O)CC[C@@H](O)C[C@@H](O)CC(=O)C[C@H]1C)C[C@H](O)[C@H]2C(=O)O,MTCC 1744,,,MIC,300 µg/mL
CCCCCCCCOc1ccc(-c2ccc(C(=O)NC3CC(NCCN)CNC(=O)[C@@H]4[C@@H](O)[C@@H](C)CN4C(=O)[C@@H](CO)NC(=O)[C@H]([C@H](O)Cc4ccccc4)NC(=O)[C@@H]4C[C@@H](O)CN4C(=O)[C@H]([C@@H](C)O)NC3=O)cc2)cc1,NEM_7103546,resazurin,,MIC,5 µg/mL
C1=C(c2cc3ccccc3s2)C2CCN1CC2,ATCC 22019,broth dilution,,EC50,>16 µg/mL
O=C(O)c1ccccc1,PYCC 2545,,,EC50,0.13 µM
CCC(C)CC(C)CCCCCCCCC(=O)N[C@H]1C[C@@H](O)[C@H](NCCN)NC(=O)[C@@H]2[C@@H](O)CCN2C(=O)[C@H]([C@H](O)CCN)NC(=O)[C@H]([C@H](O)[C@@H](O)c2ccc(O)cc2)NC(=O)[C@@H]2C[C@@H](O)CN2C(=O)[C@H]([C@@H](C)O)NC1=O,1856,broth dilution,,MIC,1 µg/mL

Again, the opening 2 rows:

| compound | strain or isolate | read by | setting | endpoint | result |
|---|---|---|---|---|---|
| CCCC1=NOC(CCCCCCCCC(=O)OC)C1 | Clinical isolate | agar |  | MIC100 | 256 µg/mL |
| COc1cc(C[C@H](C)[C@H](C)Cc2ccc(O)c(O)c2)ccc1O | CCC 124-2000 | broth dilution |  | MIC50 | 31.25 µg/mL |

Conditions beyond the fields shown may differ between rows. ECn is the concentration giving n% inhibition of infection, replication or growth. Blank or dashed fields: not listed here.